# Results: article PMC6400076 (Frontiers in Microbiology, 2019)
# Columns and labels:
# Test in all cases: purified protein
# Conditions in all cases: pH 8.5; 25.0 °C
# O=C[C@H](O)COP(=O)(O)O = test system: O=C[C@H](O)COP(=O)(O)O
# [1] = test system: NC(=O)c1ccc[n+]([C@@H]2O[C@H](COP(=O)(O)OP(=O)(O)OC[C@H]3O[C@@H](n4cnc5c(N)ncnc54)[C@H](O)[C@@H]3O)[C@@H](O)[C@H]2O)c1
# O=P(O)(O)O = test system: O=P(O)(O)O
substance,measurement,setting,value
CpGAPDH (Clostridium perfringens SM101),K0.5,O=C[C@H](O)COP(=O)(O)O,2.8 ± 0.2 mM
same,Vmax,O=C[C@H](O)COP(=O)(O)O,636000 µM/min/mg
same,kcat/Km,O=C[C@H](O)COP(=O)(O)O,38000 M⁻¹ s⁻¹
same,K0.5,[1],0.18 ± 0.01 mM
same,Vmax,[1],408000 µM/min/mg
same,kcat/Km,[1],378000 M⁻¹ s⁻¹
same,K0.5,O=P(O)(O)O,8.4 ± 0.4 mM
same,Vmax,O=P(O)(O)O,522000 µM/min/mg
same,kcat/Km,O=P(O)(O)O,10000 M⁻¹ s⁻¹
